What was measured:
[1] = target: HIV-1 MN-25 envelope (HIV-1 group M)
[2] = target: HIV-1 MN-8 envelope (HIV-1 group M)
[3] = target: HIV-1 NL4.3 envelope (HIV-1 group M)
[4] = target: HIV-1 SUMA d736-68 envelope (HIV-1 group M)
[5] = target: HIV-1 SUMA d736-73 envelope (HIV-1 group M)
[6] = target: HIV-1 WEAU 16-8M envelope (HIV-1 group M)
[7] = target: SIVcpz GAB-1 fl envelope (SIVcpz (P.t.t)) (UniProt P17281)
[8] = target: SIVcpz GAB-2 62 fl envelope (SIVcpz (P.t.t))

With “2-domain soluble CD4 (from UniProt P01730 26-208) (domain or fragment)” as the substance, how does the IC50 of neutralisation, HIV-entry assay on JC53BL-13 indicator cells [1] read?
The IC50 of neutralisation, HIV-entry assay on JC53BL-13 indicator cells was 36 nM.

What about the IC50 of neutralisation, HIV-entry assay on JC53BL-13 indicator cells [2] of the same substance?
Its IC50 of neutralisation, HIV-entry assay on JC53BL-13 indicator cells is 0.5 nM.

And the IC50 of neutralisation, HIV-entry assay on JC53BL-13 indicator cells [3]?
The IC50 of neutralisation, HIV-entry assay on JC53BL-13 indicator cells was 2 nM.

And the IC50 of neutralisation, HIV-entry assay on JC53BL-13 indicator cells [4]?
The IC50 of neutralisation, HIV-entry assay on JC53BL-13 indicator cells was 2 nM.

And the IC50 of neutralisation, HIV-entry assay on JC53BL-13 indicator cells [5]?
The IC50 of neutralisation, HIV-entry assay on JC53BL-13 indicator cells was 56 nM.

And the IC50 of neutralisation, HIV-entry assay on JC53BL-13 indicator cells [6]?
The IC50 of neutralisation, HIV-entry assay on JC53BL-13 indicator cells was 1 nM.

What about the IC50 of neutralisation, HIV-entry assay on JC53BL-13 indicator cells [7] of the same substance?
Its IC50 of neutralisation, HIV-entry assay on JC53BL-13 indicator cells is 4 nM.

And the IC50 of neutralisation, HIV-entry assay on JC53BL-13 indicator cells [8]?
Its IC50 of neutralisation, HIV-entry assay on JC53BL-13 indicator cells is 16 nM.

Source: PMC2625307
